1 molecule from patent publication US20240059757A1 (VIR BIOTECHNOLOGY, published 2024) can be followed below.

One may read the IC50 as the midpoint of a concentration-inhibition curve.

The test has as its target T1, SARS-CoV-2 P.1 RBD (SARS-CoV-2 P.1).
T1 construct: domain: RBD
Description: ELISA. For orientation: An ELISA detects its analyte on a solid surface through an enzyme-linked reagent.

Several values for one entry are separate records, joined by “and”; a condition that tells them apart may be missing. Equal entries are not always repeated. Where only a bound is given, the exact number is not on record here.

B1: S2X259 variant antibody, VH SEQ ID NO 459 / VL SEQ ID NO 445 (antibody, V domains shown)
VH: QVQLVQSGAEVKKPGSSVKVSCKASGGIFNTYTISWVRQAPGQGLEWMGRIILMSGKANYAQKIQGRVTITADKSTSTAYMELTSLRSDDTAVYYCARGFNGNYYGWGDDDAFDIWGQGTLVTVSS
VL: QTVLTQPPSVSGAPGQRVTISCTGSNSNIGAGYDVHWYQQLPGTAPKLLIVGNSNRPSGVPDRFSGSKSGTSASLAITGLQAEDEADYYCQSYDSSLSGPNWVFGGGTKLTVL
For B1, the IC50 was ≥ 0.05 µg/mL and ≤ 0.1 µg/mL.
